A mixed list of measured activities; the numbers were collected in NIAID ChemDB.

Shared fields: tests on isolated targets; agent: Hepatitis C virus; target: Nonstructural protein 5B; endpoint: IC50

ICn is the concentration giving n% inhibition. Blank or dashed fields: not listed here. Neighbouring rows are from separate reports. a–b is a range or a potency band.

compound | method | strain | mutations | value
CNC(=O)c1c(-c2ccc(F)cc2)oc2cc(N(C)S(C)(=O)=O)c(OCC(=O)c3ccc(OC)cc3)cc12 | - | - | - | ≤0.5 µM
COc1c(-c2ccc3cc(NS(C)(=O)=O)ccc3c2)cc(-n2ccc(=O)[nH]c2=O)cc1C(C)(C)C | nucleotide incorporation | GT 1a#2 | - | 0.0042 µM
CNC(=O)c1c(-c2ccc(F)cc2)oc2cc(N(C(C)c3nn[nH]n3)S(C)(=O)=O)c(OC(C)C)cc12 | - | - | - | ≤0.5 µM
O=C1C=C(O)CC(CCC2CCCC2)(C2CCCC2)O1 | - | - | - | 10–50 µM
CNC(=O)c1c(-c2ccc(F)cc2)oc2cc(N(C)S(C)(=O)=O)c(OCc3ccncc3)cc12 | - | - | - | ≤0.5 µM
COc1ccc(CCC2(C3CCCC3)CC(=O)C(Oc3ccc(Cl)cc3)C(=O)O2)cc1OC | - | - | - | 10–50 µM
O=C(O)c1ccc(N2C(=O)C(=Cc3ccc(-c4cccs4)o3)SC2=S)cc1 | - | - | - | ≤1 µM
O=C1CC(=O)OC(CCc2ccc(C(=O)N3CCOCC3)cc2)(C2CCCC2)C1 | - | - | - | >50 µM
CNC(=O)N1C[C@H]2COC[C@@H](C1)CN(C(=O)[C@]13C[C@H]1Cc1cc(OC)ccc1-c1c(C4CCCCC4)c4ccc(C(=O)NS(=O)(=O)C(C)C)cc4n1C3)C2 | nucleotide incorporation | 1b | - | 0.003 µM
CNC(=O)c1c(-c2ccc(F)cc2)oc2cc(-c3ncn[nH]3)c(OC)cc12 | - | - | - | ≤0.5 µM
O=C(Cc1cccnc1)C1C(=O)CC(CCc2cccc(Cl)c2)(C2CCCC2)OC1=O | - | - | - | 1–10 µM
O=C(O)c1ccc(N2C(=O)C(=Cc3ccc(-c4ccc(Cl)c(Cl)c4)o3)SC2=S)cc1 | - | - | - | ≤1 µM
OCc1nnc(-c2ccc(N3CCC(Oc4ccccc4C(F)(F)F)CC3)nn2)o1 | nucleotide incorporation / radiometric | GT1b | - | 30.1 µM
CNC(=O)c1c(-c2ccc(F)cc2)oc2cc(N(C3CCCC3)S(C)(=O)=O)c(OC(C)C)cc12 | - | - | - | ≤0.5 µM
COc1cc2c(=O)c(C(=O)c3ccc(C)cc3)cn(Cc3ccc(Cl)cc3)c2cc1OC | scintillation proximity / radiometric | WILD TYPE | - | 1.15 µM
O=C(O)CCN1C(=O)C(=Cc2ccc(C#Cc3ccccc3)o2)SC1=S | - | - | - | ≤1 µM
CCc1cc2c(C(=O)NC)c(-c3ccc(F)cc3)oc2cc1C(C)=O | - | - | - | ≤0.5 µM
O=C(O)CCN1C(=O)C(=Cc2ccc(-c3cc4ccccc4o3)o2)SC1=S | - | - | - | ≤1 µM
O=C(Nc1ccsc1-c1nc(C(=O)O)c(O)c(=O)[nH]1)OCc1c(Cl)cccc1Cl | nucleotide incorporation | - | - | 0.7 µM
O=C(O)c1ccc(N2C(=O)/C(=C\c3ccc(-c4cc(C(F)(F)F)ccc4Cl)o3)SC2=S)cc1 | - | - | - | ≤1 µM
C[C@@]1(O)[C@H](O)[C@@H](COP(=O)([O-])OP(=O)([O-])OP(=O)([O-])O)O[C@H]1n1cnc2c(N)nc(N)nc21 | nucleotide incorporation | GT1b | S282T | 3.6 µM
Nc1nc2cnc(N3CCC(Oc4cc(F)ccc4Br)CC3)nc2s1 | nucleotide incorporation / radiometric | GT1b | - | >80 µM
Cc1ccc(-c2ccc(C=C3SC(=S)N(CCC(=O)O)C3=O)o2)s1 | - | - | - | ≤1 µM

Again, the opening 3 rows:

| compound | method | strain | mutations | value |
|---|---|---|---|---|
| CNC(=O)c1c(-c2ccc(F)cc2)oc2cc(N(C)S(C)(=O)=O)c(OCC(=O)c3ccc(OC)cc3)cc12 | - | - | - | ≤0.5 µM |
| COc1c(-c2ccc3cc(NS(C)(=O)=O)ccc3c2)cc(-n2ccc(=O)[nH]c2=O)cc1C(C)(C)C | nucleotide incorporation | GT 1a#2 | - | 0.0042 µM |
| CNC(=O)c1c(-c2ccc(F)cc2)oc2cc(N(C(C)c3nn[nH]n3)S(C)(=O)=O)c(OC(C)C)cc12 | - | - | - | ≤0.5 µM |